Measured values from several laboratories, pooled; numbers as filed in NIAID ChemDB.

All rows: tests on isolated targets; species: HIV-1; protein: Reverse transcriptase; read-out: IC50

Blank or dashed fields: not listed here. ICn is the concentration giving n% inhibition. Rows are shuffled and stem from different studies. Two numbers with a dash give a range or band.

structure	method	strain or isolate	mutations	result
CC(C)(C#Cc1ccc(NC(=O)CSc2nnnn2-c2cc(C(F)(F)F)ccc2Cl)c(Cl)c1F)C(=O)NCCN1CCCC1	PicoGreen / fluorescence	WT		<1 µM
CCN1c2ncc(CCOc3ccc(/C=C(\C)C(=O)O)c4ccccc34)cc2C(=O)N(C)c2ccc(F)nc21	nucleotide incorporation / radiometric		RT-V106A	>1 µM
CC(C)Nc1cccnc1N1CCN(C(=O)c2cc3ccc(C=O)cc3[nH]2)CC1	nucleotide incorporation			<100 µM
CN(CCc1cc[n+]([O-])cc1)C(=O)COc1ccc(NC(=O)CSc2nnnn2-c2ccc(C3CC3)cc2Cl)c(Cl)c1	PicoGreen / fluorescence	WT		<1 µM
CC(C)c1nnc2c3ccccc3c(N3CCc4ccccc4C3)nn12	RT activity / fluorescence	KER2008		8.55 µM
O=C(COc1ccc(NC(=O)CSc2nnnn2-c2ccc(C3CC3)cc2Cl)c(Cl)c1)NCCc1ccc[n+]([O-])c1	PicoGreen / fluorescence		RT-K103 Y181C	<1 µM
CCNc1cccnc1N1CCN(C(=O)c2cc3ccc(OC)c(C)c3[nH]2)CC1	nucleotide incorporation			<100 µM
CC(C)(C#Cc1ccc(NC(=O)CSc2nnnn2-c2ccc(C(C)(C)C)cc2Cl)c(Cl)c1)OCC(N)=O	PicoGreen / fluorescence		RT-K103 Y181C	<1 µM
CCN1c2ncc(CCOc3ccc(C(=O)O)c4ccccc34)cc2C(=O)Nc2c(C)ccnc21	nucleotide incorporation / radiometric		RT-K103N Y181C	0.1–1 µM
CCN1c2ncc(CCOc3ccc(-c4ncc[nH]4)cc3C)cc2C(=O)N(C)c2cccnc21	nucleotide incorporation / radiometric	IIIB		<0.05 µM
CC(C)(C)c1cc(Cl)c(-n2nnnc2SCC(=O)Nc2ccc(-c3ccc(OCC(=O)O)cc3)cc2Cl)c(Cl)c1	PicoGreen / fluorescence		RT-K103 Y181C	<1 µM
CCN1c2ncc(CCOc3ccc(C4CC4C(=O)O)c4ccccc34)cc2C(=O)N(C)c2ccc(F)nc21	nucleotide incorporation / radiometric		RT-K103N Y181C	0.1–1 µM
CC(C)(C#Cc1ccc(NC(=O)CSc2nnnn2-c2ccc(C3CC3)cc2Cl)c(Cl)c1)NC(=O)CN1CCNCC1	PicoGreen / fluorescence	WT		<1 µM
c1ccc2c(c1)CN(c1nn3c(C4CC4)nnc3c3ccccc13)C2	RT activity / fluorescence	98US_MSC5016		>100 µM
CC(C)(C#Cc1ccc(NC(=O)CSc2nnnn2-c2cccc(C3CC3)c2Cl)c(Cl)c1)C(=O)O	PicoGreen / fluorescence		RT-K103 Y181C	<1 µM
c1coc(-c2nnc3c4ccccc4c(N4CCc5ccccc5C4)nn23)c1	RT activity / fluorescence	IIIB		0.53 µM
CCN1c2ncc(CCOc3ccc(/C=C(\C)C(=O)O)c4ccccc34)cc2C(=O)N(C)c2ccc(C)nc21	nucleotide incorporation / radiometric		RT-K103N Y181C	0.1–1 µM
Cc1nnc2n1CCN(c1nn3c(C4CC4)nnc3c3ccccc13)C2	RT activity / fluorescence	IIIB		>100 µM
COc1ccc2cc(C(=O)N3CCN(c4ncccc4NC(C)C)CC3)[nH]c2c1Br	nucleotide incorporation			<100 µM
CCc1cc(CCc2nc3ccccc3o2)c(=O)[nH]c1C	nucleotide incorporation		RT-Y181W	0.6552 µM
CCN1c2ncc(CCOc3ccc(C(=O)O)c4c3CCCC4)cc2C(=O)N(C)c2ccc(OC)nc21	nucleotide incorporation / radiometric		RT-Y188L	0.1–1 µM
CC(C)(C)c1ccc(-n2nnnc2SCC(=O)Nc2ccc(C(=O)Nc3cccc(C(=O)O)c3)cc2Cl)c(Cl)c1	PicoGreen / fluorescence	WT		<1 µM
CCN1c2ncc(CCOc3ccc(CC(=O)O)c4ccccc34)cc2C(=O)N(C)c2ccc(Cl)nc21	nucleotide incorporation / radiometric		RT-V106A	>1 µM
CCN1c2ncc(CCOc3ccc(C(=O)NCc4cc[n+]([O-])cc4)cc3C)cc2C(=O)N(C)c2cccnc21	nucleotide incorporation / radiometric	IIIB	RT-K103N Y181C	0.05–0.1 µM
CC(C)(C)c1ccc(-n2nnnc2SCC(=O)Nc2ccc(NS(=O)(=O)c3cccs3)cc2Cl)c(Cl)c1	PicoGreen / fluorescence	WT		<1 µM
CCN1c2ncc(CCOc3ccc(C(=O)O)c4c3CCN(S(=O)(=O)N(C)C)C4)cc2C(=O)N(C)c2cccnc21	nucleotide incorporation / radiometric		RT-K103N Y181C	<0.1 µM
CC(=O)Nc1cc2c(cc1OC(F)(F)F)CCN(c1nn3c(C)nnc3c3ccccc13)C2	RT activity / fluorescence	IIIB		0.61 µM
CCN1c2ncc(CCOc3ccc(-c4cocn4)cc3C)cc2C(=O)N(C)c2cccnc21	nucleotide incorporation / radiometric	IIIB		<0.05 µM
CC(C)Nc1cccnc1N1CCN(C(=O)c2cc3cc(F)ccc3[nH]2)CC1	nucleotide incorporation			<100 µM
Cc1nnc2c3c(c(N4CCc5ccccc5C4)nn12)C1CCC3CC1	RT activity / fluorescence	KER2008		5.63 µM
CC(C)(C#Cc1ccc(NC(=O)CSc2nnnn2-c2ccc(C3CC3)cc2Cl)c(Cl)c1)OCCOc1ccncc1	PicoGreen / fluorescence		RT-K103 Y181C	<1 µM
Fc1ccc2c(c1)CCN(c1nn3c(C4CC4)nnc3c3ccccc13)C2	RT activity / fluorescence	98US_MSC5016		2.89 µM
CC(C)(C)c1ccc(-n2nnnc2SCC(=O)Nc2ccc(S(=O)(=O)Nc3ccccc3)cc2Cl)c(Cl)c1	PicoGreen / fluorescence	WT		<1 µM
C=C1c2cc(CCOc3ccc(NS(C)(=O)=O)c4ccccc34)cnc2N(CC)c2ncccc2N1C	nucleotide incorporation / radiometric		RT-K103N Y181C	0.1–1 µM
CC(C)(C)c1ccc(-n2nnnc2SCC(=O)Nc2ccc(-c3ccc(OCCN4CCOCC4)cc3)cc2Cl)c(Cl)c1	PicoGreen / fluorescence		RT-K103 Y181C	<1 µM
CCN1c2ncc(CCOc3ccc(C(=O)NN)cc3C)cc2C(=O)N(C)c2cccnc21	nucleotide incorporation / radiometric	IIIB		<0.05 µM